Records with an inconclusive call do not appear. How the source made its calls: active means survival T/C of 150% or more; inactive means T/C below 125% in these data.
Tested on: BDF1 mice, M5076 sarcoma s.c., survival/tumor T/C
Test: NCI In Vivo Anticancer Drug Screen. Data for tumor model Sarcoma M5076 (subcutaneous) in B6D2F1 (BDF1) mice
Settings: endpoint: median survival time, schedule: Q01DX009 (ip), vehicle: saline with Tween-80, higher = longer survival
Method: The antitumor activity of compounds was measured in mice bearing transplantable tumors. Survival or tumor size were measured and the results are expressed as the measurement made in the treated group (T) divided by the measurement made in the vehicle treated control group (C). The tumor model used in this assay is Sarcoma M5076 (subcutaneous) in B6D2F1 (BDF1) mice

Measured: T/C

[Sm].[c-]1[c-][c-][cH-][c-]1.[c-]1[c-][c-][cH-][c-]1.[c-]1[c-][c-][cH-][c-]1
inactive: dose: 50.0 mg/kg/injection 89 % of control | dose: 100.0 mg/kg/injection 97 % of control | dose: 200.0 mg/kg/injection 111 % of control

From PubChem BioAssay AID288 (DTP/NCI, 2004)
